This note sets out measurements from PMC9246220.

The exact form of at least one protein or probe is not confirmed.

This data set addresses S-nitrosylated AphB-His6 (GSNO-treated wild type) (UniProt Q9KT56). Briefly: EMSA. The conditions noted are these: 1 mM GSNO pretreatment then DTT (binding restored); 20 nM DNA, 10 mM Tris-HCl pH 7.5, 1 mM EDTA, 50 mM KCl, 100 ug/ml BSA, 10 ug/ml poly dI-dC, 100 mM DTT when indicated; 20 min at 25 C; 5% PAGE in 0.5X TAE; recombinant protein; label: 5'-biotin. For orientation: Mobility shift assays separate free from complexed probe on a gel.

“CAATAAATTAGGTTTTGGCATGCAATCTGCTCATTAAGAAGGCTTGTGTAGAGTGGCTCA (double strand) [hmpA promoter probe]”: the binding result is “binds”.
